Test results taken from article PMC9002018 (Frontiers in Veterinary Science, 2022).
Some peptides are written in HELM: one residue between dots, names in brackets for other building blocks, links after the first $.

Test: peptide made by a vendor (Fmoc solid-phase peptide synthesis)
Settings: whole synthesis

PEPTIDE1{I.N.W.K.G.I.A.A.M.A.K.K.L.L.[am]}$$$$V2.0
final purity (method not given): 98%
